Literature values as cited in patent US10344060B2 (priority 2013, dated 2019).

Sequences of proteins named here, by UniProt entry; tags and fusion partners are left off.
UniProt P04775, whole entry, looked up: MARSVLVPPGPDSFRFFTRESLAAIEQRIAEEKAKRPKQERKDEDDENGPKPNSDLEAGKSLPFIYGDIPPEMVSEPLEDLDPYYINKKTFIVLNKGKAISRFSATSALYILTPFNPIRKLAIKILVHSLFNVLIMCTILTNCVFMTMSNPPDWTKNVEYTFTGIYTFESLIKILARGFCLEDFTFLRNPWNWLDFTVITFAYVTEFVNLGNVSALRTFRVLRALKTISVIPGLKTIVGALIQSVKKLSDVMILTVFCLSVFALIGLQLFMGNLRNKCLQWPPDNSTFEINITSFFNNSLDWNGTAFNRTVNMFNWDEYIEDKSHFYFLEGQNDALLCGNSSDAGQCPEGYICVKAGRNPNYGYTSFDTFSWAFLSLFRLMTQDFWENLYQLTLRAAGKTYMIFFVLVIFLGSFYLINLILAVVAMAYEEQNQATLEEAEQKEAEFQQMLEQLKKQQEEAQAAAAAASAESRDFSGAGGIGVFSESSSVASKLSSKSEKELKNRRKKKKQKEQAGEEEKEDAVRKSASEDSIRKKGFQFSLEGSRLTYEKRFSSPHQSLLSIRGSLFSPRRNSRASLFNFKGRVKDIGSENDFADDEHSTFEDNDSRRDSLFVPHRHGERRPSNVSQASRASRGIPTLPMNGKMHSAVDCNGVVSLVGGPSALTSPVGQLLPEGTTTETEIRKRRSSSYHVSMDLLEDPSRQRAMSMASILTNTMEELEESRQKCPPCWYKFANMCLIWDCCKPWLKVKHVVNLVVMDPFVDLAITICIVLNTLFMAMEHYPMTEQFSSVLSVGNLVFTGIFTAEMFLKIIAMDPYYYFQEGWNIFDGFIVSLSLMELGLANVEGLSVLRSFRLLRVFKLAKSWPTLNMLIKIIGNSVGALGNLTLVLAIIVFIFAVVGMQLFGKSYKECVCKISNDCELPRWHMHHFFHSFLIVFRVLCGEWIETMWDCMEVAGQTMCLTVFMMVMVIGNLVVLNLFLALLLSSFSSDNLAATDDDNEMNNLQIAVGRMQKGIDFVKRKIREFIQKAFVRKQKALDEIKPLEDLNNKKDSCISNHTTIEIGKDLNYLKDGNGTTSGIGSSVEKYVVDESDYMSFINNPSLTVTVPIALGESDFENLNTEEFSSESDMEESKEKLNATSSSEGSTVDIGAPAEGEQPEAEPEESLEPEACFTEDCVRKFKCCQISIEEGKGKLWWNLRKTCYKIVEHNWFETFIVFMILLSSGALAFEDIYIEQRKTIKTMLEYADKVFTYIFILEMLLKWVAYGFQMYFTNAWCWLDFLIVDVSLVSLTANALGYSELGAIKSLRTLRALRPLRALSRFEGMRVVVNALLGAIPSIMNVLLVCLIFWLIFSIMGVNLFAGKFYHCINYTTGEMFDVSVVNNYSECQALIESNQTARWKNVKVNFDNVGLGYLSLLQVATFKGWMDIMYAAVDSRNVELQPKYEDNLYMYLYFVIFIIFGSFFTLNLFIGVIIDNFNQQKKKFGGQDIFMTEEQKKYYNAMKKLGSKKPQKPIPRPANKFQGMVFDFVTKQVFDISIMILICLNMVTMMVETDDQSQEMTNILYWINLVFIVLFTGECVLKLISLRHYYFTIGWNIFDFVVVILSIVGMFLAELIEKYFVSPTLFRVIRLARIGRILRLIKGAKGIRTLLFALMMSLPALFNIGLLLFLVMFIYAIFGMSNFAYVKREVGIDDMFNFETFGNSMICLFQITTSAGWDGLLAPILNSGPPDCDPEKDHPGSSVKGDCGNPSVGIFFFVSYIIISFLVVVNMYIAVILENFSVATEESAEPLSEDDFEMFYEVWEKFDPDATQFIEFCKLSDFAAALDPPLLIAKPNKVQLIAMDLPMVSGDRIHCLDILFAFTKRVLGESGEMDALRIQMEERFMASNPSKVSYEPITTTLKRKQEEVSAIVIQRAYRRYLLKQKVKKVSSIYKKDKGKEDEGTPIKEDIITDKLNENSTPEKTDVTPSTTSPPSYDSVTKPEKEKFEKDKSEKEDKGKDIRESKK

Tests used:
Nav1.1 = Nav1.1 (Rattus norvegicus, UniProt P04774); settings: read-out: TTX IC50; cited from earlier work
Nav1.2 = Nav1.2 (Rattus norvegicus, UniProt P04775); settings: read-out: TTX IC50; cited from earlier work

NC1=N[C@H](O)[C@H]2[C@H]3O[C@]4(O)O[C@@H]([C@@H](O)[C@@]2(N1)[C@@H]4O)[C@]3(O)CO [TTX, tetrodotoxin]
IC50 (Nav1.1): 10 nM
IC50 (Nav1.2): 10 nM
